PubChem BioAssay AID624099 | ICCB-Longwood | 2012
Aim: 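Human genes that papillomavirus E2 requires to repress the HPV18 LCR promoter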 (primary screen). Cell system: human C33A cervical carcinoma cells (HPV-negative) stably expressing BPV1 E2 and an HPV18 LCR luciferase reporter. Knock-down reagent: siRNA pool against human genes, 40 nM. Duration: 72 h. Measurement: 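HPV18 LCR reporter light per well, converted to plate-wise z-scores that exclude control wells, and averaged over triplicate plates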. Reading the numbers: mean z-score and z-score: higher = stronger reporter signal, weaker E2 silencing. Hit rule: 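Hit if mean z-score reaches 2 and two or more of three replicate z-scores also reach 2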.
This is an unselected part of about 21,000 reagents. Over the whole deposit, 497 (2.4%) got an active call. 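Higher z means weaker E2 silencing; only reporter increases were scored, and knock-downs that hurt cell survival may mask genuine repressor factors.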

| gene | PubChem SID | mean z-score | z-score, replicate A | z-score, replicate B | z-score, replicate C | outcome |
| --- | --- | --- | --- | --- | --- | --- |
| COBLL1 | SID134324172 | -1.07 | -0.92 | -1.16 | -1.14 | inactive |
| CALHM5 | SID134320111 | 0.44 | 0.43 | 0.74 | 0.16 | inactive |
| HNRNPA1P60 | SID134326585 | 0.18 | 0.43 | 0.05 | 0.07 | inactive |
| DGKI | SID56479093 | -0.41 | -0.23 | -0.51 | -0.49 | inactive |
| FAM241B | SID134320289 | -0.62 | -0.99 | -0.64 | -0.24 | inactive |
| SRSF6 | SID134320078 | -0.02 | -0.01 | -0.23 | 0.17 | inactive |
| SLC22A7 | SID134312504 | -0.26 | -0.14 | -0.29 | -0.33 | inactive |
| ATXN3L | SID134326215 | -0.23 | -0.16 | -0.28 | -0.26 | inactive |
| IL5 | SID134312925 | -0.79 | -0.94 | -0.69 | -0.73 | inactive |
| LOC399737 (retired record) | SID134328223 | -0.35 | -0.77 | -0.08 | -0.2 | inactive |
| MOV10 | SID134318338 | -0.22 | -0.15 | -0.46 | -0.05 | inactive |
| MIR22HG | SID134319102 | 0.8 | 0.65 | 0.91 | 0.83 | inactive |
| C17orf75 | SID134318225 | 0.05 | -0.31 | 0.16 | 0.29 | inactive |
| MAP4K2 | SID56478700 | 0.78 | 0.89 | 0.25 | 1.2 | inactive |
| SUGT1 | SID134317127 | 0.61 | 0.76 | 0.03 | 1.04 | inactive |
| KRTAP6-2 | SID134321891 | -0.47 | -0.33 | -0.51 | -0.58 | inactive |
| ALMS1 | SID134317139 | 0.09 | 0.04 | 0.05 | 0.18 | inactive |
| TMEM139 | SID134320770 | -0.84 | -0.85 | -0.81 | -0.85 | inactive |
| PLA2G15 | SID134314351 | 0.8 | 0.52 | 0.95 | 0.94 | inactive |
| NAALAD2 | SID134311399 | 0.21 | 0.52 | 0.19 | -0.07 | inactive |
| EPCIP-AS1 | SID134329957 | 2.83 | 3 | 2.78 | 2.71 | active |
| NGB | SID134319887 | 0.88 | 0.77 | 1.03 | 0.85 | inactive |
| PDE3A | SID134312689 | 0.16 | 0.1 | 0.37 | 0 | inactive |
| KDM3B | SID134324089 | 2.36 | 2.61 | 2.41 | 2.05 | active |
| APOC1 | SID134315901 | 0.75 | 1.03 | 0.67 | 0.55 | inactive |
| DIABLO | SID134310478 | -0.08 | 0.08 | 0 | -0.33 | inactive |
| EGFLAM | SID134323040 | 1.73 | 1.96 | 1.73 | 1.5 | inactive |
| SP8 | SID134312284 | 2.41 | 2.16 | 2.68 | 2.4 | active |
| ADGRG6 | SID134310984 | 0.35 | 0.58 | 0.35 | 0.12 | inactive |
| TAF8 | SID134319928 | 1.05 | 0.83 | 1.34 | 0.99 | inactive |
| SIN3B | SID134328994 | 1.24 | 1.3 | 1.31 | 1.09 | inactive |
| DYRK4 | SID56478859 | 0.35 | 0.08 | 0.68 | 0.29 | inactive |
| IL1R1 | SID134310793 | 0.87 | 1.29 | 0.9 | 0.41 | inactive |
| UNC13A | SID134328997 | -1.39 | -1.52 | -1.45 | -1.22 | inactive |
| ADRB3 | SID134310882 | -0.37 | -0.49 | 0 | -0.61 | inactive |

Continued (5 carried over from the part before).
| gene | PubChem SID | mean z-score | z-score, replicate A | z-score, replicate B | z-score, replicate C | outcome |
| --- | --- | --- | --- | --- | --- | --- |
| SIN3B | SID134328994 | 1.24 | 1.3 | 1.31 | 1.09 | inactive |
| DYRK4 | SID56478859 | 0.35 | 0.08 | 0.68 | 0.29 | inactive |
| IL1R1 | SID134310793 | 0.87 | 1.29 | 0.9 | 0.41 | inactive |
| UNC13A | SID134328997 | -1.39 | -1.52 | -1.45 | -1.22 | inactive |
| ADRB3 | SID134310882 | -0.37 | -0.49 | 0 | -0.61 | inactive |
| CENPK | SID134319257 | -0.44 | -0.75 | -0.87 | 0.31 | inactive |
| ADAM30 | SID134311188 | 0.47 | 0.77 | 0.35 | 0.29 | inactive |
| LOC254027 (retired record) | SID134326288 | -0.05 | 0 | -0.16 | 0.01 | inactive |
| OTUB2 | SID134315348 | -0.68 | -0.79 | -0.7 | -0.56 | inactive |
| NDUFA1 | SID134316196 | -0.59 | -0.49 | -0.42 | -0.86 | inactive |
| NOBOX | SID134326344 | 0.6 | 0.8 | 0.55 | 0.46 | inactive |
| NOBOX | SID134327930 | 0.05 | 0.19 | -0.25 | 0.22 | inactive |
| KRTAP20-2 | SID134322458 | 0.75 | 0.96 | 0.68 | 0.6 | inactive |
| LOC285422 | SID134327428 | 1.95 | 1.55 | 2.19 | 2.09 | inactive |
| RAE1 | SID134315817 | 2.42 | 2.54 | 2.64 | 2.08 | active |
| SPMAP2 | SID134321039 | 1.29 | 0.75 | 1.63 | 1.5 | inactive |
| CSF2RB | SID134312803 | -0.68 | -0.52 | -0.72 | -0.79 | inactive |
| IL21 | SID134312904 | -0.68 | -0.88 | -1 | -0.16 | inactive |
| KRTAP26-1 | SID134329410 | -0.35 | -0.44 | -0.24 | -0.37 | inactive |
| JAK3 | SID56478525 | -1.3 | -1.19 | -1.69 | -1.01 | inactive |
| LOC387888 (retired record) | SID134328411 | 0.83 | 0.63 | 0.93 | 0.93 | inactive |
| COX4I1 | SID134315952 | 0.21 | 0.31 | 0.28 | 0.03 | inactive |
| RHOH | SID134313657 | 0.25 | 0.11 | 0.49 | 0.16 | inactive |
| SYNGR3 | SID134321260 | 0.63 | 0.94 | 0.46 | 0.48 | inactive |
| ASB1 | SID134321147 | 0.25 | 0.27 | 0.51 | -0.04 | inactive |
| CD53 | SID134315476 | 0.17 | 0.33 | 0 | 0.17 | inactive |
| NOL3 | SID134310465 | 0.78 | 0.97 | 0.81 | 0.56 | inactive |
| ATP2C2 | SID134311698 | 1.88 | 1.83 | 2.18 | 1.64 | inactive |
| MYH7B | SID134329051 | -0.24 | -0.01 | 0.29 | -0.99 | inactive |
| KRT28 | SID134322602 | 0.1 | 0.47 | -0.06 | -0.12 | inactive |
| TP53BP2 | SID134310613 | 0.48 | 0.52 | 0.32 | 0.61 | inactive |
| PNKD | SID134318348 | 0.76 | 0.71 | 0.68 | 0.89 | inactive |
| HECTD2 | SID134312317 | -0.77 | -1.03 | -1.27 | 0.01 | inactive |
| ADAMTS1 | SID134311190 | 0.41 | 0.18 | 0.59 | 0.47 | inactive |
| NEK6 | SID56478779 | 0.48 | 0.18 | 0.58 | 0.67 | inactive |
| ANAPC4 | SID134317858 | -0.2 | -0.06 | -0.36 | -0.19 | inactive |
| SLC16A8 | SID134312458 | 1.39 | 1.01 | 1.47 | 1.68 | inactive |
| RPF1 | SID134329007 | 0.03 | 0.18 | -0.16 | 0.07 | inactive |
| BCHE | SID134314534 | -0.02 | 0.15 | -0.12 | -0.1 | inactive |
| LOC399951 (retired record) | SID134328232 | -0.17 | -0.42 | -0.49 | 0.39 | inactive |
| GAPDHP24 | SID134326929 | 0.92 | 0.81 | 0.98 | 0.98 | inactive |
| CNTN1 | SID134315940 | -0.53 | -0.44 | -0.39 | -0.77 | inactive |
| GUCA2B | SID134317030 | 2.25 | 2.22 | 1.98 | 2.54 | active |
